In PMC7867234:

Biological target: T1, OmpR-His6 (Yersinia enterocolitica Ye9) (UniProt P74982)
T1 sequence (looked up): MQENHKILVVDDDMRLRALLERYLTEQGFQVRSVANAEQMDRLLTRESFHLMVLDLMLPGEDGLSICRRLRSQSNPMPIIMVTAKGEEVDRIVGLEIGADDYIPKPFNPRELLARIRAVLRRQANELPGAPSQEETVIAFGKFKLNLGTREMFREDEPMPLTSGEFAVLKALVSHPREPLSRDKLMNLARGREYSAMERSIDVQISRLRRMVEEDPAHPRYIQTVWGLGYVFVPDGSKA
Experiment: EMSA
Conditions: 50 mM Tris-HCl pH 8.0, 100 mM KCl, 1 mM EDTA, 1 mM DTT, 20 mM MgCl2, 12% glycerol, 100 ug/mL BSA, 0.1% Triton X-100, 22 C, 15 min, 0.05 or 0.3 pmol DNA in 10 uL, recombinant protein, residues 1-239, protein details: N-terminal His6, probe letters rebuilt from the primers and the genome

[1] = 304-bp 16S rDNA present, fewer complexes than F1234, at 1.31 uM

CGTTGCTTCTATCCCTCTGGTTATACTCTGTTAAGCCACCCACAGATCCGCACTTTCATCCGTGCAAAATGAAAATAAACTGCTACAAATTTGTAACCTTATACTTTGCAGTCATATACTTAAATTATGCAACAATCCCATTCATCAATACATTGCATGATTAATCGGGCAAAGTGTGCAATTATATCTTTGTTAACAACCACGGTTTTCATTTGGGGCTAGCAGTTCTATAATGAGACGCAATTGAGAATATTGCGCCACGGATGTCATAGGCTGAACAGCCTTAATTTGAATCGATAGTAACAGGACTGAATCCGCATG (double strand) [F234]
binding result [1]: binds

GCGGAATCTGTCCTGTTACTAAGCGGTTCACTTCATTAGAAGAAGTGACAGAATTTGCTCTTGAGATAATGCGTATCATTATAGAATTGCCACGCCTAAATGAAAACCACAAGTCCCTGGCAAATATTGTTAATAAAAACGTGGCACAGCTTACATTTACAACGGCAAGGCCACTTGAACACCGGGACATTGTACAGGTACAACAGCAAAAGTTACAAATTTGTAGCAATTATTTTGATTGGCATTATCTATTAATACGGCGTAGACATGAGTCTACGCCGCATCACA (double strand) [FEc]
binding result (211-bp 16S rDNA present, complexes from 0.65 uM, multiple bands up to 3.9 uM): binds

TGACAAATGAGCGCGTTGAAGCTTGGGTAAAACAGATCAGCGAAGAACTGAATCTGGCCGAAATTACCGGTTAATTTGTCATGTCGGAAACGCGAGGATGAAATTTAATATTGCCACGCGTTTCCGTTGCTTCTATCCCTCTGGTTATACTCTGTTAAGCCACCCACAGATCCGCACTTTCATCCGTGCAAAATGAAAATAAACTGCTACAAATTTGTAACCTTATACTTTGCAGTCATATACTTAAATTATGCAACAATCCCATTCATCAATACATTGCATGATTAATCGGGCAAAGTGTGCAATTATATCTTTGTTAACAACCACGGTTTTCATTTGGGGCTAGCAGTTCTATAATGAGACGCAATTGAGAATATTGCGCCACGGATGTCATAGGCTGAACAGCCTTAATTTGAATCGATAGTAACAGGACTGAATCCGCATG (double strand) [F1234]
binding result (four shifted bands from 0.65 to 3.25 uM, with or without 304-bp 16S rDNA): binds

TGACAAATGAGCGCGTTGAAGCTTGGGTAAAACAGATCAGCGAAGAACTGAATCTGGCCGAAATTACCGGTTAATTTGTCATGTCGGAAACGCGAGGATGAAATTTAATATTGCCACGCGTTTCCGTTGCTTCTATCCCTCTGGTTATACTCTGTTAAGCCACCCACAGATCCGCACTTTCATCCGTGCAAAATGAAAATAAACTGCTACAAATTTGTAACCTTATACTTTGCAGTCATATACTTAAATTATGCAACAATCCCATTCATCAATACATTGCATGATTAATCGGGCAAAGTGTGCAATTATATCTTTGTTAACAACCACGGTTTTCATTTGGGGCTAGCAGTTCTATAATGAGACGCAA (double strand) [F123]
binding result [1]: binds

Tags and fusion partners may be left off the protein sequences shown. Construct, isoform or probe ends are uncertain for at least one entry.
